A short description of experiment [1]: Selectivity for Trypanosoma cruzi triosephosphate isomerase over human triosephosphate isomerase.
In a further experiment the test system is Trypanosoma cruzi. Description: Antiparasitic activity against Trypanosoma cruzi T2 epimastigotes assessed as growth inhibition at 25 uM after 5 days. The format is functional. In a few lines:
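Late-log epimastigotes were grown axenically at 28 °C in BHI-tryptose with 5% fetal calf serum and seeded at 2×10^6/mL in medium containing compound (DMSO stock; final DMSO ≤1%, 1% DMSO control). Growth was read as A590 at day 0 and day 5. Inhibition = {1 − [(Ap − A0p)/(Ac − A0c)]} × 100. Means of two experiments.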

The chains behind the UniProt entries cited, without tags or fusion partners. Where a name states a change or a piece, a line headed by the entry shows the natural chain unless it says otherwise.
UniProt P52270: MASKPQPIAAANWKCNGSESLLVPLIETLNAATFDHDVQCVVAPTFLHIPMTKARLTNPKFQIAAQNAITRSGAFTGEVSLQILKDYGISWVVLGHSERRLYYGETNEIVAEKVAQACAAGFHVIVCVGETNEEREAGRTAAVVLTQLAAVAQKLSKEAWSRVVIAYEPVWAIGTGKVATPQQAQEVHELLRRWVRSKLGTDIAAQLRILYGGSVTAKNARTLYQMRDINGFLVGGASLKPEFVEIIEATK

In experiment [2] the target is Triosephosphate isomerase, glycosomal (Trypanosoma cruzi) (UniProt P52270). Put plainly: Inhibition of Trypanosoma cruzi triosephosphate isomerase at 400 uM after 2 hrs. In a few lines:
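Recombinant E. coli-expressed enzyme, dialyzed into 100 mM triethanolamine/10 mM EDTA pH 7.4, was incubated with compound (DMSO stock) in 100 mM triethanolamine, 10 mM EDTA, pH 7.4, 10% DMSO at 36 °C for 2 h. An aliquot was then assayed for activity (glyceraldehyde 3-phosphate to dihydroxyacetone phosphate, α-glycerol phosphate dehydrogenase-coupled) with 5 ng enzyme. Irreversible inhibition was scored as loss of activity; means of two experiments.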

The values below come from ChEMBL document CHEMBL1629474, “Massive screening yields novel and selective Trypanosoma cruzi triosephosphate isomerase dimer-interface-irreversible inhibitors with anti-trypanosomal activity” (Eur J Med Chem, 2010).

SMILES strings stand for the structures. Active and inactive are the calls of the source. The rule behind the calls is not given here.

As a reminder, the inhibition is how much of the control response was suppressed. A high value points to a strong effect.

For the compound `ClCCNCc1ccc2c(c1)OCO2`, the Ratio in experiment [1] was over 4. Moreover, in the experiment with Trypanosoma cruzi, the result was Active. In experiment [2], this compound displayed an inhibition of 23%.

Turning to `O=[N+]([O-])c1cccc2no[n+]([O-])c12`, the Ratio in experiment [1] was over 4. Moreover, in the experiment on Trypanosoma cruzi, the result was Active. In addition, the inhibition in experiment [2] amounted to 33%.

Take `O=[N+]([O-])c1ccc2no[n+]([O-])c2c1`: in experiment [1], the Ratio was over 4. For the same compound, the result with Trypanosoma cruzi was Active. The inhibition in experiment [2] stood at 29%.

Take `O=[N+]([O-])c1no[n+]([O-])c1-c1ccccc1`: the Ratio in experiment [1] was over 4. In addition, the result with Trypanosoma cruzi was Active. This compound also showed an inhibition in experiment [2] of 71%.
